PubChem BioAssay AID1259414, Drosophila RNAi Screening Center – 2018
Aim: 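Host factors increasing or decreasing Wolbachia levels in cultured fly cells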 (primary screen). System: Drosophila JW18 cells infected with Wolbachia. Reagents: long dsRNA against Drosophila genes, 0.25 µg dsRNA per well of a 384-well plate. Duration: 5 days. Treatment: cells persistently infected with Wolbachia before knock-down; no added drug. Measured: 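Imaged fluorescence in situ signal for Wolbachia 23S rRNA per DAPI-counted host cell, given as a robust z-score within each plate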. Direction: Wolbachia per cell robust z: higher = more Wolbachia per host cell than the plate typical. Active means: 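Hit when robust z is 1.5 or more, or -1.5 or less, in at least two of three replicates; excludes dsRNAs with several or no targets, genes not expressed in JW18 and well A1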.
The screen tested about 24,000 reagents; shown is an unselected part of those that have a named target and a result. In the full data, about 1,210 (5%) were called active. 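Inactive calls also include excluded dsRNAs with several or no targets, genes unexpressed in JW18, and well A1, regardless of score.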

predicted target | dsRNA | Wolbachia per cell robust z, rep 1 | Wolbachia per cell robust z, rep 2 | Wolbachia per cell robust z, rep 3 | activity call
pxb | DRSC13110 | 0.234 | -3.08 | 0.616 | inactive
pxb | DRSC14996 | 0.208 | 0.215 | -0.13 | inactive
pxb | DRSC14997 | -1.3 | -0.131 | -0.0427 | inactive
pxb | DRSC22225 | 0.649 | -0.752 | 0.49 | inactive
pxb | DRSC25214 | 0.13 | -0.0485 | 0.38 | inactive
CG13077 | DRSC02181 | 0.275 | 0.25 | 0.724 | inactive
Root | DRSC15972 | 0.323 | -1.5 | -0.568 | inactive
nec | DRSC06769 | -0.0943 | -0.727 | -0.194 | inactive
nec | DRSC40840 | 0.714 | 0.414 | 0.39 | inactive
EAChm | DRSC10010 | 0.754 | 0.692 | 0.636 | inactive
skl | DRSC10050 | 0.989 | -1.21 | 1.26 | inactive
hyd | DRSC16971 | 1.62 | -1.5 | 0.716 | inactive
hyd | DRSC28294 | -4.07 | -0.174 | -1.4 | inactive
opa | DRSC12384 | 1.09 | -2.45 | -0.917 | inactive
opa | DRSC23152 | 0.743 | 1.61 | 0.507 | inactive
opa | DRSC26411 | 1.51 | 0.0729 | -0.522 | inactive
hoip | DRSC03546 | 5.4 | 6.59 | 6.18 | active
Pura | DRSC08891 | 0.474 | 3.05 | -1.2 | inactive
Pura | DRSC10862 | 0.763 | -0.299 | -5.47 | inactive
Pura | DRSC10864 | -0.162 | -0.62 | -0.0831 | inactive
Pura | DRSC10865 | -0.236 | -0.0951 | 0.105 | inactive
Pura | DRSC10866 | -0.397 | -0.161 | 0.215 | inactive
Pura | DRSC26606 | -1.11 | -0.154 | 0.465 | inactive
Pfrx | DRSC18856 | 0.85 | 1.04 | 1.15 | inactive
Pfrx | DRSC19315 | -8.2 | -0.519 | -0.861 | inactive
Pfrx | DRSC28602 | -0.592 | 0.821 | -0.499 | inactive
Jhbp14 | DRSC01988 | -2.45 | 0.542 | 0.434 | inactive
Targ1 | DRSC11616 | 0.422 | 1.86 | -0.644 | inactive
Targ1 | DRSC41485 | 0.513 | -0.439 | -1.41 | inactive
CG6142 | DRSC15976 | -2.87 | 0.981 | 0.7 | inactive
anchor | DRSC10861 | 0.608 | 0.637 | -0.32 | inactive
Ugt49B2 | DRSC16049 | -3.83 | -0.329 | -1.76 | inactive
Ugt49B2 | DRSC24548 | 0.138 | -0.35 | -0.828 | inactive
Hsp110 | DRSC11186 | 0.853 | 0.794 | 0.957 | inactive
Hsp110 | DRSC26538 | -4.04 | -1.82 | -1.29 | active
Mur82C | DRSC12011 | -0.833 | -1.69 | -2.84 | inactive
Mur82C | DRSC12212 | 0.732 | 1.55 | 0.803 | inactive
Mur82C | DRSC23420 | 0.249 | -8.88 | 0.512 | inactive
Mur82C | DRSC39063 | 0.666 | 0.0207 | 0.00348 | inactive
CG9213 | DRSC20170 | 0.48 | 1.05 | -0.266 | inactive
CG9213 | DRSC24500 | 0.656 | 0.855 | 1.67 | inactive
CG14635 | DRSC17945 | -1.11 | -1.26 | 0.368 | inactive
CG14635 | DRSC29724 | -1.44 | 0.172 | -0.543 | inactive
CG14395 | DRSC14852 | 0.584 | 0.162 | -1.11 | inactive
Top1 | DRSC20295 | -0.256 | -2.62 | -0.069 | inactive
Dg | DRSC06718 | -1.39 | 0.0522 | -1.95 | inactive
CG11178 | DRSC19396 | 0.426 | -4.42 | -1.84 | active
MBD-like | DRSC16996 | 0.693 | -6.47 | -2.69 | active
Ptx1 | DRSC16804 | -4.61 | -2.24 | -0.272 | inactive
Ptx1 | DRSC25321 | -0.247 | -0.82 | -0.602 | inactive
Lim3 | DRSC23034 | 0.0422 | 0.498 | -0.707 | inactive
Lim3 | DRSC28555 | -0.205 | 0.672 | 1.31 | inactive
Pglym78 | DRSC16787 | -0.545 | 0.0728 | 1.46 | inactive
Pglym78 | DRSC24626 | 1.2 | 0.427 | 1.35 | inactive
Paics | DRSC20305 | 0.388 | -3.28 | 0.843 | inactive
Tsc1 | DRSC16890 | 0.798 | 0.628 | 2.51 | inactive
Tsc1 | DRSC27643 | 0.456 | -1.06 | -1.26 | inactive
CG10934 | DRSC06017 | 0.931 | -0.0669 | -0.136 | inactive
beta4GalT7 | DRSC14385 | -0.0139 | -1.15 | -4.6 | inactive
Pten | DRSC03402 | 0.333 | -1.19 | -1.27 | inactive
Pten | DRSC29950 | 0.507 | -0.627 | 0.0258 | inactive
Sfp26Ac | DRSC40632 | 0.87 | 1.09 | -0.326 | inactive
CG4968 | DRSC02794 | 0.315 | 0.144 | -3.26 | inactive
CG4968 | DRSC29740 | 0.749 | 0.965 | 0.48 | inactive
RpL24 | DRSC03185 | 1.82 | 2.89 | 1.88 | active
RpL24 | DRSC28724 | 0.658 | 2.03 | 2.25 | active
CG3527 | DRSC18307 | 0.472 | -0.936 | 0.327 | inactive
CG3527 | DRSC28450 | -0.193 | 1.3 | 0.889 | inactive
CG10864 | DRSC14273 | -1.82 | -0.143 | -0.261 | inactive
vri | DRSC23174 | 1.28 | 0.229 | 0.837 | inactive
vri | DRSC26054 | -0.706 | 0.324 | 0.544 | inactive
CG5781 | DRSC02893 | 0.443 | -0.153 | 1.45 | inactive
Eaat2 | DRSC00032 | -0.353 | 0.358 | 0.196 | inactive
Eaat2 | DRSC00749 | 0.144 | 1.05 | 0.12 | inactive
Eaat2 | DRSC26070 | 0.31 | -1.14 | 0.0431 | inactive
CG11674 | DRSC19414 | -0.188 | 0.0689 | -0.441 | inactive
BORCS6 | DRSC08514 | 1.1 | 0.285 | 0.794 | inactive
BORCS6 | DRSC25735 | -0.579 | -0.725 | -0.0251 | inactive
Obp50e | DRSC06434 | 0.101 | -4.46 | -0.841 | inactive
IntS9 | DRSC10493 | 0.352 | -1.8 | -0.772 | inactive
IntS9 | DRSC28991 | 0.795 | 0.888 | 0.738 | inactive
Uros1 | DRSC18191 | 0.453 | 0.000717 | -0.0771 | inactive
Uros1 | DRSC29316 | -0.721 | 0.214 | 0.24 | inactive
PpD3 | DRSC16796 | -1.66 | -0.656 | 0.0692 | inactive
CG11368 | DRSC17778 | -1.8 | -2.91 | 0.407 | inactive
hang | DRSC23216 | -0.563 | 1.04 | 2.15 | inactive
hang | DRSC29322 | 1.2 | 0.64 | -0.314 | inactive

Looked up above.
For “Wolbachia per cell robust z, rep 3”, CG4968 [DRSC02794] is entered as -3.26
Value for CG14635 [DRSC29724] in “activity call”: inactive
For “Wolbachia per cell robust z, rep 2”, BORCS6 [DRSC08514] is entered as 0.285
anchor [DRSC10861], Wolbachia per cell robust z, rep 1: 0.608
Under “Wolbachia per cell robust z, rep 3”, beta4GalT7 [DRSC14385] has -4.6
Under “Wolbachia per cell robust z, rep 1”, Mur82C [DRSC12011] has -0.833
